Compound potency records, mixed from different reports. Data source: NIAID ChemDB in PubChem.

Common to all: whole-cell or culture tests; organism: Mycobacterium avium intracellulare; endpoint: MIC90

MIC50, MIC90 and the like: level of inhibition, or share of isolates inhibited.

compound | strain | result
C[C@@H]1CN(c2c(F)c(N)c3c(=O)c(C(=O)O)cn(C4CC4)c3c2F)C[C@H](C)N1 |  | 12.5 µg/mL
CC1COc2c(N3CCN(C)CC3)c(F)cc3c(=O)c(C(=O)O)cn1c23 | 31 strains | 50 µg/mL
CO[C@H]1/C=C/O[C@@]2(C)Oc3c(C)c(O)c4c(O)c(c(/C=N/N5CCN(C6CCCC6)CC5)c(O)c4c3C2=O)NC(=O)/C(C)=C\C=C\[C@H](C)[C@H](O)[C@@H](C)[C@@H](O)[C@@H](C)[C@H](OC(C)=O)[C@@H]1C | 21 strains | 2 µg/mL
CC1COc2c(C3(N)CC3)c(F)cc3c(=O)c(C(=O)O)cn1c23 | 17 strains | 100 µg/mL
CC1COc2c(N3CCN(C)CC3)c(F)cc3c(=O)c(C(=O)O)cn1c23 | 31 strains | 50 µg/mL
C[C@H]1COc2c(N3CCN(C)CC3)c(F)cc3c(=O)c(C(=O)O)cn1c23 | 31 strains | 25 µg/mL
CC1COc2c(N3CCN(C)CC3)c(F)cc3c(=O)c(C(=O)O)cn1c23 | N-260 | 100 µg/mL
NNC(=O)c1ccncc1 | 17 strains | 100 µg/mL
Cc1c(F)c(N2CCNC(C)C2)cc2c1c(=O)c(C(=O)O)cn2C1CC1 | 31 strains | 25 µg/mL
CO[C@H]1/C=C/O[C@@]2(C)Oc3c(C)c(=O)c4c(O)c(c5oc6cc(N7CCCCC7)ccc6nc5c4c3C2=O)NC(=O)/C(C)=C\C=C\[C@H](C)[C@H](O)[C@@H](C)[C@@H](O)[C@@H](C)[C@H](OC(C)=O)[C@@H]1C |  | 2.5 µg/mL
Cc1c(F)c(N2CCNC(C)C2)cc2c1c(=O)c(C(=O)O)cn2C1CC1 | 17 strains | 12.5 µg/mL
CC[C@H]1OC(=O)[C@H](C)[C@@H](O[C@H]2C[C@@](C)(OC)[C@@H](OC(C)=O)[C@H](C)O2)[C@H](C)[C@@H](O[C@@H]2O[C@H](C)C[C@H](N(C)C)[C@H]2O)C(C)(O)C[C@@H](C)/C(=N\OCCCC2CCCCC2)[C@H](C)[C@@H](O)[C@]1(C)O | 12 strains | 1.56 µg/mL
C[C@H]1CN(c2c(F)cc3c(=O)c(C(=O)O)cn(C4CC4)c3c2OC(F)F)CCN1 | 17 strains | 3.13 µg/mL
CC1COc2c(N3CCN(C)CC3)c(F)cc3c(=O)c(C(=O)O)cn1c23 | 31 strains | 50 µg/mL
C[C@@H]1CN(c2c(F)c(N)c3c(=O)c(C(=O)O)cn(C4CC4)c3c2F)C[C@H](C)N1 | 31 strains | 12.5 µg/mL
CC[C@H]1OC(=O)[C@H](C)[C@@H](O[C@H]2C[C@@](C)(OC)[C@@H](O)[C@H](C)O2)[C@H](C)[C@@H](O[C@@H]2O[C@H](C)C[C@H](N(C)C)[C@H]2O)[C@](C)(OC)C[C@@H](C)C(=O)[C@H](C)[C@@H](O)[C@]1(C)O | 17 strains | 12.5 µg/mL

2 of the rows above, restated:

CC1COc2c(C3(N)CC3)c(F)cc3c(=O)c(C(=O)O)cn1c23 ; strain: 17 strains ; result: 100 µg/mL
CC1COc2c(N3CCN(C)CC3)c(F)cc3c(=O)c(C(=O)O)cn1c23 ; strain: 31 strains ; result: 50 µg/mL

An empty or dashed field is not shown. Neighbouring rows are from separate reports.